74 compounds from PubChem BioAssay AID488965 (Broad Institute, 2010) can be followed below.

Molecules are shown by their SMILES. The list shows a part of the results, in another mix than the full data. Activity calls are given as the source filed them. Cut-off read from the data, not from the text of the source: active = inhibition above about 30% (passing the limit was not always enough); inconclusive = no clear call, values can overlap the other calls.

The assay deals with PvdQ acylase [Pseudomonas aeruginosa LESB58]. Briefly: P. aeruginosa PvdQ acylase inhibitors, primary screen, biochemical, fluorescence, plate reader and imaging, single point (AID 488965).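 Note: 0% = vehicle neutral wells and 100% = reference inhibitor wells.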 The settings on record: purified PvdQ acylase, at 10 µM, active compounds read high.
Regarding `Cc1cc(N(CCCl)CCCl)ccc1C=O`, the inhibition (in general, the change of the read-out against control, counted positive when it falls) is inactive: -10.8%.

For `CCCN1CCC(Nc2cc(OC)cc(OC)c2)CC1`, the inhibition is inactive: -17.8%.

Regarding `c1ccc(CN2CCC(Nc3ccccc3)CC2)cc1`, the inhibition is inactive: -8.25%.

As to `CN(C)C1(CNC(=O)c2cccc(C#N)c2)CCCCC1`, the inhibition was inactive: -0.0548%.

As for `CC(C)(C)OC(=O)N1CCC(N(C(=O)c2ccccc2)c2ccc(Cl)cc2)CC1`, the inhibition is inactive: -17.8%.

For the compound `N#Cc1ccc(C(=O)NCC2(N3CCCCC3)CCCCC2)cc1`, the inhibition was inactive: -0.296%.

As to `O=C(OC1CN2CCC1CC2)C1c2ccccc2C=Cc2ccccc21` (centres undefined), the inhibition was inactive: -17.4%.

Turning to `N/C(=N\O)c1c(N)no[n+]1[O-]`, the inhibition was inactive: -16.2%.

For `CCOC(=O)N1CCC(Nc2ccc(C)cc2)CC1`, the inhibition is inactive: 3.22%.

As for `COc1ccc(C(=O)NCC2(N3CCOCC3)CCCCC2)cc1OC`, the inhibition was inactive: 12%.

On to `O=C(NCC1(N2CCOCC2)CCCCC1)c1cc(Br)ccc1Cl`, for which the inhibition is inactive: -8.16%.

On to `COc1cc(C(=O)NCC2(N3CCOCC3)CCCCC2)cc(OC)c1C`, for which the inhibition was inactive: -8.25%.

On to `CN1CCC(Nc2ccc(Cl)cc2)CC1`, for which the inhibition was inactive: -8.65%.

For the compound `CCC(CO)(C(=O)OC1CN2CCC1CC2)c1ccccc1` (centres undefined), the inhibition is inactive: 2.52%.

For `COc1cccc(C(=O)N(c2cc(C)cc(C)c2)C2CCN(C(=O)OC(C)(C)C)CC2)c1`, the inhibition is inactive: -5.25%.

Take `COc1cc(OC)cc(C(=O)NCC2(N3CCOCC3)CCCCC2)c1`: the inhibition is inactive: -4.4%.

With `CCCOc1ccc(C(=O)NCC2(N(C)C)CCCCC2)cc1`, the inhibition is inactive: -24%.

With `O=C(O)C1(Nc2ccccc2)CCN(Cc2ccccc2)CC1`, the inhibition is inactive: -7.46%.

For the compound `CC(C)(C)OC(=O)N1CCC(Nc2ccccc2)CC1`, the inhibition was inactive: 12.3%.

As to `CN1CCC(Nc2ccc(F)c(Cl)c2)CC1`, the inhibition is inactive: -2.18%.

Turning to `CCOc1ncccc1C(=O)NCC1(N2CCOCC2)CCCCC1`, the inhibition was inactive: -13.6%.

For the compound `Cn1c(=O)[nH]cc(N(CCCl)CCCl)c1=O`, the inhibition is inactive: -14.9%.

With `CN(C)c1ccc(C(=O)NCC2(N3CCCCC3)CCCCC2)cc1`, the inhibition is inactive: -1.23%.

As for `O=C(NCC1(N2CCCCC2)CCCCC1)c1ccco1`, the inhibition was inactive: 4.29%.

On to `CCN1CCC(Nc2cccc(F)c2)CC1`, for which the inhibition is inactive: -23.1%.

For `Cc1ccccc1NC1(C#N)CCN(Cc2ccccc2)CC1`, the inhibition is inactive: -16.2%.

Turning to `Cc1ccc(NC2(C#N)CCN(Cc3ccccc3)CC2)cc1`, the inhibition was inactive: -1.72%.

Regarding `Fc1ccccc1NC1CCN(Cc2ccccc2)CC1`, the inhibition is inactive: -6.04%.

For the compound `Cc1ccc(C(=O)NCC2(N3CCCCC3)CCCCC2)o1`, the inhibition was inactive: -11.2%.

As for `COc1cc(OC)cc(C(=O)NCC2(N3CCCCC3)CCCCC2)c1`, the inhibition was inactive: -1.77%.

Regarding `CC(=O)N(c1ccccc1)C1CCNCC1`, the inhibition is inactive: -0.338%.

For the compound `COc1cc(C(=O)NCC2(N(C)C)CCCCC2)ccc1OC(F)F`, the inhibition is inactive: 11.9%.

For `CCOC(=O)N1CCC(Nc2cccc(C)c2)CC1`, the inhibition is inactive: -11.7%.

On to `CCOC(=O)N1CCC(Nc2ccc(F)cc2)CC1`, for which the inhibition was inactive: -9.02%.

`COc1ccc(NC2CCN(CCc3ccccc3)CC2)c(OC)c1`: the inhibition was inactive: 4.57%.

Consider `O=C(NCC1(N2CCCCC2)CCCCC1)c1ccc(F)cc1`, for which the inhibition was inactive: -3.29%.

Turning to `CCCCOc1ccc(C(=O)NCC2(N3CCOCC3)CCCCC2)cc1`, the inhibition is inactive: 11.8%.

As for `O=P1(N(CCCl)CCCl)SCCCS1`, the inhibition is inactive: 4.5%.

Consider `CCOc1ccc(C)cc1CN(CCCl)CCCl`, for which the inhibition was inactive: 5.64%.

Turning to `O=C1CCN(Cc2ccccc2)CC1`, the inhibition was inactive: -9.96%.

Take `CCOC(=O)N1CCC(Nc2ccc(OC)cc2)CC1`: the inhibition is inactive: -2.13%.

Turning to `COc1ccc(Cl)cc1C(=O)NCC1(N2CCOCC2)CCCCC1`, the inhibition is inactive: -11.4%.

On to `O=C(OC1CN2CCC1CC2)C1c2ccccc2Oc2ccccc21` (centres undefined), for which the inhibition is inactive: -14.3%.

Regarding `O=C(NCC1(N2CCCCC2)CCCCC1)c1ccc(Cl)s1`, the inhibition was inactive: -13.9%.

Take `N#CC1(Nc2ccccc2)CCN(Cc2ccccc2)CC1`: the inhibition was inactive: -10.3%.

In the case of `O=C(NCC1(N2CCOCC2)CCCCC1)c1cc2ccccc2o1`, the inhibition is inactive: -11.5%.

For `Cc1cc(C)cc(N(C(=O)c2ccccc2)C2CCN(C(=O)OC(C)(C)C)CC2)c1`, the inhibition is inactive: -2.9%.

With `O=C(NCC1(N2CCCCC2)CCCCC1)c1ccc(Cl)nc1`, the inhibition was inactive: -8.09%.

For `Cc1cccc(NC2(C#N)CCN(Cc3ccccc3)CC2)c1`, the inhibition was inactive: -8.05%.

In the case of `CSc1ccccc1C(=O)NCC1(N2CCCCC2)CCCCC1`, the inhibition is inactive: 5.83%.

`O=C(NCC1(N2CCCCC2)CCCCC1)c1cccs1`: the inhibition was inactive: 5.11%.

In the case of `O=C(NCC1(N2CCCCC2)CCCCC1)c1ccc(=O)[nH]c1`, the inhibition is inactive: -15.8%.

`CC(C)(C)OC(=O)N1CCC(N(C(=O)c2ccccc2)c2ccc(F)cc2)CC1`: the inhibition was inactive: 19%.

Consider `COc1ccc(C(=O)NCC2(N3CCCCC3)CCCCC2)c(OC)c1OC`, for which the inhibition is inactive: 9.26%.

For the compound `COc1ccc(C(=O)NCC2(N3CCCCC3)CCCCC2)cc1`, the inhibition was inactive: -13.2%.

In the case of `CCCOc1ccc(C(=O)NCC2(N(C)C)CCCCC2)cc1OC`, the inhibition is inactive: -9.27%.

For the compound `O=C(NCC1(N2CCCCC2)CCCCC1)c1cncc(Br)c1`, the inhibition was inactive: -2.36%.

Take `CN1CCC(Nc2cccc(F)c2)CC1`: the inhibition is inactive: -3.05%.

Take `O=C(NCC1(N2CCOCC2)CCCCC1)c1cc(F)c(F)cc1Cl`: the inhibition was inactive: -17.2%.

As to `COc1cc(OC)c(C(=O)NCC2(N(C)C)CCCCC2)cc1OC`, the inhibition was inactive: 4.64%.

`CN(C)c1cccc(C(=O)NCC2(N3CCCCC3)CCCCC2)c1`: the inhibition is inactive: -3.85%.

For the compound `COc1ccc(CN(CCCl)CCCl)cc1Cl`, the inhibition was inactive: -14.9%.

Take `CC(C)c1ccc(NC2CCN(C(=O)OC(C)(C)C)CC2)cc1`: the inhibition is inactive: -11.2%.

With `CC(C)c1ccc(C(=O)NCC2(N3CCOCC3)CCCCC2)cc1`, the inhibition was inactive: -4.03%.

For the compound `COc1ccc(NC2CCN(C(=O)OC(C)(C)C)CC2)cc1`, the inhibition is inactive: -14%.

`CN1CCN(CCOC(=O)C(O)(c2ccccc2)c2ccccc2)CC1`: the inhibition is inactive: -1.95%.

On to `O=C(NCC1(N2CCOCC2)CCCCC1)c1cc(=O)[nH]c2ccccc12`, for which the inhibition was inactive: -10.3%.

`COc1cc(C(=O)NCC2(N3CCCCC3)CCCCC2)ccc1OC(F)F`: the inhibition was inactive: -17.7%.

Consider `O=C(NCC1(N2CCCCC2)CCCCC1)c1cccc(C(F)(F)F)c1`, for which the inhibition was inactive: -5.56%.

For `O=C(NCC1(N2CCCCC2)CCCCC1)c1cccc([N+](=O)[O-])c1`, the inhibition is inactive: 8.93%.

Consider `CSc1ccc(C(=O)NCC2(N3CCOCC3)CCCCC2)cc1`, for which the inhibition was inactive: 3.66%.

Take `N#CC1(Nc2ccccc2)CCN(CCc2ccccc2)CC1`: the inhibition is inactive: -11.2%.

Take `CCN1CCC(Nc2ccc(Cl)cc2)CC1`: the inhibition was inactive: -11.6%.

Consider `O=C(NCC1(N2CCCCC2)CCCCC1)c1ccc(OC(F)F)cc1`, for which the inhibition is inactive: -12.1%.
